Anti-infective test results gathered from many reports (values: NIAID ChemDB through PubChem).

Common to all: growth or infection tests; organism: HIV-1; endpoint: EC50

Conditions beyond the fields shown may differ between rows. Blank or dashed fields: not listed here. a–b is a range or a potency band. ECn is the concentration giving n% inhibition of infection, replication or growth.

compound,strain or isolate,mutations,cell line,value
Cc1cn([C@H]2C[C@H](N=[N+]=[N-])[C@@H](CO)O2)c(=O)[nH]c1=O,-,Indinavir- ritonavir-resistant PR V82F/I84V,MT-4,0.002 µM
CC(=O)NCC(=O)N[C@H](C(=O)N[C@@H](Cc1ccccc1)C(=O)C(F)(F)CCc1ccccc1)C(C)C,IIIB,-,MT-4,8.6 µM
CNc1ncnc2c1ncn2[C@@H]1O[C@@H](CO)C[C@H]1F,-,-,PBM,>100 µM
CC(C)=CCOc1cc(NC(=S)c2ccsc2C)ccc1Cl,-,-,MM + M/M,0.015 µg/mL
CCO/N=C(\c1ccc(Br)cc1)C1CCN(C2(C)CCN(C(=O)c3c(C)cc[n+]([O-])c3C)CC2)CC1,JV1083 Clinical isolates,-,PBMC,<0.01 µM
O=C1N(Cc2ccc3c(c2)NS(=O)(=O)N3)[C@H](Cc2ccccc2)[C@H](O)[C@@H](O)[C@@H](Cc2ccccc2)N1Cc1ccc2c(c1)NS(=O)(=O)N2,RF,-,MT-2,<32 µM
Nc1ccn([C@H]2CC[C@@H](CO)O2)c(=O)n1,184V (RT-M184V),RT-M184V,HT4 + HT4 LacZ-1,0.8 µM
O=C1N(Cc2ccc3nc[nH]c3c2)[C@H](Cc2ccccc2)[C@H](O)[C@@H](O)[C@@H](Cc2ccccc2)N1Cc1ccc2nc[nH]c2c1,RF,-,MT-2,<19 µM
CC(=O)Oc1ccc(/C=C/C(=O)O[C@H](C(=O)O)[C@H](OC(=O)/C=C/c2ccc(OC(C)=O)c(OC(C)=O)c2)C(=O)O)cc1OC(C)=O,NL4-3,Dextran sulfate-resistant,MT-4,>93 µM
Cc1cn([C@@H]2O[C@H](CO[Si](C)(C)C(C)(C)C)C3(OS(=O)(=O)C=C3N)[C@H]2O[Si](C)(C)C(C)(C)C)c(=O)n(C)c1=O,-,-,Primary lymphocytes + Lymphocytes,0.058 µg/mL
Nc1ccc(CN2C(=O)N(Cc3ccc4[nH]ncc4c3)[C@H](Cc3ccccc3)[C@H](O)[C@@H](O)[C@H]2Cc2ccccc2)cc1-c1ccn[nH]1,RF WT,-,MT-2,<0.022 µM
CC[C@H](C)[C@H](NC(=O)[C@H](C(C)C)[C@@H](O)[C@H](O)[C@H](CC1CCCCC1)NC(=O)[C@H](Cc1cnc[nH]1)NC(=O)COc1cccc2ccccc12)C(=O)NCc1ccccn1,-,-,Primary lymphocytes + Lymphocytes,0.2 µM
Cc1ncnc(C)c1C(=O)N1CCC(C)(N2CCN([C@@H](Cc3ccccc3)c3ccc(C(F)(F)F)cc3)[C@@H](C)C2)CC1,RU570 Clinical isolates,-,PBMC,<0.004 µM
O=c1[nH]cnc2c1ncn2[C@H]1O[C@@H](CO)C[C@H]1F,-,-,PBM,>100 µM
CC(=O)c1cn(COCCO)c2ccccc12,-,-,MT-4,>200 µM
Nc1ncnc2c1ncn2CCOCP(=O)(O)O,IIIB,-,MT-4,7.7 µM
CC(=O)Oc1c(OC(C)=O)c2c3c(c(-c4c(C)cc5c(C(C)C)c(OC(C)=O)c(OC(C)=O)c6c5c4OC6OC(C)=O)c(C)cc3c1C(C)C)OC2OC(C)=O,LAV,-,PBMC,0.93 µM
Cc1cc(/C=C/C#N)cc(C)c1Nc1ccnc(Nc2ccc(C#N)cc2)n1,LAI,-,TZM-bl,0.0003 µM
CC(=O)OCCOCn1cc(C=O)c2ccccc21,-,-,MT-4,>200 µM
Nc1nc(N)c2ncn([C@H]3CO[C@@H](CO)O3)c2n1,IIIB,-,Jurkat cells,1.37 µM
O=Cc1cn(COCCO)c2ccccc12,-,-,MT-4,>200 µM
CC(C)=CCN1Cc2cc(Cl)cc3[nH]c(=S)n(c23)C[C@@H]1C,-,-,MM + M/M,0.05 µg/mL
COC(=O)C(CO)N=Cc1c(O)c(O)c(C(C)C)c2cc(C)c(-c3c(C)cc4c(C(C)C)c(O)c(O)c(C=NC(CO)C(=O)OC)c4c3O)c(O)c12,LAV,-,PBMC,2.2 µM
C[C@H]1[C@H](CO)C=C[C@@H]1n1cnc2c(N)ncnc21,-,-,MT-4,>100 µg/mL
Nc1ccn([C@@H]2CC[C@H](CO)O2)c(=O)n1,184V (RT-M184V),RT-M184V,HT4 + HT4 LacZ-1,180 µM
Nc1nc(=O)n([C@H]2O[C@@H](CO)C[C@H]2F)cc1Cl,-,-,PBM,>100 µM
OCCOCn1c(-c2ccccn2)c(Br)c2ccccc21,-,-,MT-4,>200 µM
Nc1nc2c(ncn2CCOCP(=O)(O)O)c(=O)[nH]1,IIIB,-,MT-4,0.54 µM
Cc1cc2c(C(C)C)c(O)c(O)c(C=O)c2c(O)c1-c1c(C)cc2c(C(C)C)c(O)c(O)c(C=O)c2c1O,LAV,-,PBMC,1.7 µM
O=C1N(Cc2ccc3scnc3c2)[C@H](Cc2ccccc2)[C@H](O)[C@@H](O)[C@@H](Cc2ccccc2)N1Cc1ccc2scnc2c1,RF,-,MT-2,<3.2 µM
Nc1ncnc2c1ncn2C[C@@H](CO)OCP(=O)(O)O,BaL,-,Macrophage + Monocytes/macrophages,3.2 µM
Nc1ccn([C@H]2CC[C@@H](CO)O2)c(=O)n1,IIIB,ddI-2-resistant,MT-4,0.66 µM
OCCOCn1c(-c2ccccc2)c(Br)c2ccccc21,-,-,MT-4,>117 µM
C[C@H](Cn1cnc2c(N)ncnc21)OCP(=O)(O)O,LAI,E138K,TZM-bl,6.6 µM
CC(C)(C)OC(=O)N[C@@H](Cc1ccccc1)[C@H](O)CNC[C@@H](O)[C@H](Cc1ccc(OCC(=O)N2CCOCC2)cc1)NC(=O)OC(C)(C)C,RF,-,MT-2,0.4 µM
CC(C)(C)NC(=O)[C@@H]1CN(C(C)(C)c2cc3cnccc3o2)CCN1C[C@@H](O)C[C@@H](Cc1ccccc1)C(=O)N[C@H]1c2ccccc2OC[C@H]1O,V-18C(PR-L10I M36I S37D M46I R57K LK63P A71V G73S I84V L90M I93L),PR-L10I M36I S37D M46I R57K LK63P A71V G73S I84V L90M I93L,-,<0.25 µM
COC(=O)N[C@H](C(=O)N[C@@H](Cc1ccccc1)[C@@H](O)CN(Cc1ccc(-c2ccccn2)cc1)NC(=O)[C@@H](NC(=O)OC)C(C)(C)C)C(C)(C)C,NL4-3,PR-L10I G48V L90M,MT-2,0.00095 µM
O=S(=O)(O)c1cc(Nc2nc(Cl)nc(Nc3ccc(Nc4nc(Cl)nc(Nc5cc(S(=O)(=O)O)cc6cc(S(=O)(=O)O)c(N=Nc7ccccc7S(=O)(=O)O)c(O)c56)n4)cc3)n2)c2c(O)c(N=Nc3ccccc3S(=O)(=O)O)c(S(=O)(=O)O)cc2c1,MN,-,MOLT-4,1–10 µM
Cc1cn([C@H]2O[C@@H](CO)C[C@H]2F)c(=O)nc1N,-,-,PBM,>100 µM
CC(C)=CCN1Cc2cc(Cl)cc3[nH]c(=S)n(c23)C[C@@H]1C,-,RT-L74V A98G,MT-4,<3 µM
O=C(O)c1cccc(CN2C(=O)N(Cc3ccc4[nH]ncc4c3)[C@H](Cc3ccccc3)[C@H](O)[C@@H](O)[C@H]2Cc2ccccc2)c1,RF,-,MT-2,<0.75 µM
CC(C)(C)NC(=O)[C@@H]1CN(C(C)(C)c2cc3cnccc3o2)CCN1C[C@@H](O)C[C@@H](Cc1ccccc1)C(=O)N[C@H]1c2ccccc2C[C@H]1O,4X (PR M46I L63P V82T I84V) Recombinant,PR-M46I L63P V82T I84V,-,<0.625 µM
Nc1nc(N)c2ncn(CCOCP(=O)(O)O)c2n1,-,-,MM + M/M,0.07 µM
Nc1ncnc2c1ncn2CCOCP(=O)(O)O,BaL,-,Macrophage + Monocytes/macrophages,0.022 µM
CNc1cccc(CN2C(=O)N(Cc3ccc4[nH]ncc4c3)[C@H](Cc3ccccc3)[C@H](O)[C@@H](O)[C@H]2Cc2ccccc2)c1,RF,-,MT-2,<0.008 µM
c1cc(CN2CCCNCCNCCCNCC2)ccc1CN1CCCNCCNCCCNCC1,-,-,Primary lymphocytes + Lymphocytes,0.003 µg/mL
O=c1ccn([C@@H]2O[C@@H](CO)C[C@H]2F)c(=O)[nH]1,-,-,PBM,>100 µM
N#Cc1cn(COCCO)c2ccccc12,-,-,MT-4,>200 µM
CC(C)[C@H](NC(=O)CNC(=O)OCc1ccccc1)C(=O)N[C@@H](Cc1ccccc1)C(=O)C(F)(F)CCc1ccccc1,IIIB,-,MT-4,1.9 µM
Cn1c(O)c(C2=c3ccccc3=NC2=O)c2ccccc21,LAV,-,PBMC,>100 µM
Nc1ccc(CN2C(=O)N(Cc3ccc4[nH]ncc4c3)[C@H](Cc3ccccc3)[C@H](O)[C@@H](O)[C@H]2Cc2ccccc2)cc1-n1cccn1,RF WT,-,MT-2,<0.006 µM
Nc1nc2ccc(CN3C(=O)N(Cc4ccc5nc(N)oc5c4)[C@H](Cc4ccccc4)[C@H](O)[C@@H](O)[C@H]3Cc3ccccc3)cc2o1,RF,-,MT-2,<0.084 µM

Again, the opening 5 rows:

{"compound": "Cc1cn([C@H]2C[C@H](N=[N+]=[N-])[C@@H](CO)O2)c(=O)[nH]c1=O", "mutations": "Indinavir- ritonavir-resistant PR V82F/I84V", "cell line": "MT-4", "value": "0.002 µM"}
{"compound": "CC(=O)NCC(=O)N[C@H](C(=O)N[C@@H](Cc1ccccc1)C(=O)C(F)(F)CCc1ccccc1)C(C)C", "strain or isolate": "IIIB", "cell line": "MT-4", "value": "8.6 µM"}
{"compound": "CNc1ncnc2c1ncn2[C@@H]1O[C@@H](CO)C[C@H]1F", "cell line": "PBM", "value": ">100 µM"}
{"compound": "CC(C)=CCOc1cc(NC(=S)c2ccsc2C)ccc1Cl", "cell line": "MM + M/M", "value": "0.015 µg/mL"}
{"compound": "CCO/N=C(\\c1ccc(Br)cc1)C1CCN(C2(C)CCN(C(=O)c3c(C)cc[n+]([O-])c3C)CC2)CC1", "strain or isolate": "JV1083 Clinical isolates", "cell line": "PBMC", "value": "<0.01 µM"}